System: Vero cells
Type: cell-based
Procedure: The cytotoxicity test is performed using Vero cells and the CyQUANT™ XTT Cell Viability assay kit (supplied by Invitrogen™).
Samples are dissolved in 100% DMSO at a concentration of 20-50 g/L. The final concentration in DMEM medium is 40 μg/L. Cells were prepared in flasks containing DMEM cell culture medium with 10% FBS as follows:
A 175 ml flask containing 20-30 million cells with 25 ml medium and 2 ml trypsin was added. Then the medium was discarded as the cells were attached to the flask wall. Rinse twice with PBS, then trypsin was added to detach cells from the flask wall. The mixture was incubated for 5 min at 37° C. To inactivate trypsin, 6 ml […] was added to the medium (twice the volume of the original trypsin in the medium).
In a 50 ml flask, the medium was centrifuged for 5 min at 300 g. […]. The medium was discarded, and the cells were resuspended. 100 μL of cells were added to 100 μL of dye, then 12 μL was used for counting. The percentage of viability was compared with a control of cells without any treatment.
The test is performed in a 96-well plate. A range of concentrations (mg/l) 0.14; 0.28; 0.56; 1.16; 2.25; 4.5 is used to determine the toxicity limit of each isoform.

“conventional C17 isoform of mycosubtilin, ring Asn-Tyr-Asn-Gln-Pro-Ser-Asn (peaks 5, 6, 7; FIG. 1) (NYNQPSN; cyclic lipopeptide with C17 fatty chain; printed: Asn-Tyr-Asn-Gln-Pro-Ser-Asn) [A-C17]” was tested, and the “EC50 times less than the new isoforms of the same chain length” value was “at least 2 times”.
